The values below come from ChEMBL document CHEMBL3813673, “Bistacrine derivatives as new potent antimalarials” (Bioorg Med Chem, 2016).

In this assay the test system is Plasmodium falciparum. Description: Inhibition of recombinant Plasmodium falciparum falcipain 2 assessed as hydrolysis of Cbz-Phe-Arg-AMC measured after 5 mins at 20 uM by spectrofluorometric method. In a few lines: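 Recombinant falcipain-2 with Cbz-Phe-Arg-AMC substrate in 50 mM sodium acetate, pH 5.5, with 5 mM EDTA and 200 mM NaCl. Released AMC read by fluorescence (ex 380 nm, em 460 nm). Single-concentration screen; compounds giving over 35% inhibition went on to kinetic assays. Run twice.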

For `c1ccc2c(NCCCCCCCCCNc3c4c(nc5ccccc35)CCCC4)c3c(nc2c1)CCCC3`, the inhibition (commonly the percentage by which the read-out fell short of the control) is 45.9%.
